Test results published in patent US4230711A (priority 1979, dated 1980).

How the values were obtained:
Erysiphe polygoni = test: Powdery Mildew test on bean seedlings; assay type: in vivo; conditions: @ 250 ppm; bean seedlings (var. Bountiful) sprayed, inoculated one day later; about 10 days; relative to untreated check plants
[1] = tested on: Alternaria solani conidia; test: Tomato Early Blight control test; assay type: in vivo; conditions: @ 250 ppm; tomato (Bonny Best) seedlings sprayed, inoculated one day later; about 12 days; relative to untreated check plants
[2] = tested on: Phytophthora infestans conidia; test: Tomato Late Blight control test; assay type: in vivo; conditions: @ 250 ppm; tomato (Bonny Best) seedlings sprayed, inoculated one day later; approximately 7 days; relative to untreated check plants
fungi = conditions: cited U.S. Pat. Nos. 3,178,447 and 2,553,770; cited from earlier work

SMILES	% Control, Bean Powdery Mildew (Erysiphe polygoni)	% Control, Tomato Early Blight [1]	% Control, Tomato Late Blight [2]	fungicidal activity (fungi)
CC1(C)C(=O)N(SC(Cl)(Cl)C(Cl)Cl)C(=O)c2ccccc21	0%	73%	50%	
O=C1c2ccccc2C(=O)N1SC(Cl)(Cl)C(Cl)Cl				having fungicidal activity
